Measured values from several laboratories, pooled; numbers as filed in NIAID ChemDB.

All rows: tests in culture; organism: HIV-1; measure: EC50

Two numbers with a dash give a range or band.

CCOCn1c(Cc2cccc(C(F)(F)F)c2)c(C(C)C)c(=O)[nH]c1=O ; strain or isolate: A17 ; changes: K103N + Y181C ; method: MTT ; value: 12 µM
CC(C)(C)C(=O)Nc1ccn([C@H]2CC[C@@H](COC(=O)C(C)(C)C)O2)c(=O)n1 ; method: cytopathic effect ; value: >25 µM
Cn1c(=O)cc(Oc2nc(Nc3ccc(C#N)cc3)nc(Nc3cnccn3)n2)c2ccccc21 ; strain or isolate: IIIB ; method: MTT ; value: >83.58 µg/mL
CC(C)(C)C(=O)OC[C@@H]1CC[C@H](n2ccc(N)nc2=O)O1 ; method: cytopathic effect ; value: <6.4 µM
Nc1nc2c(ncn2COCCO)c(=O)[nH]1 ; method: single cycle ; value: 10 µM
Fc1cccc(CCNc2nc(SC3CCCC3)nc3c2cnn3CC(Cl)c2ccccc2)c1 ; value: 37.09 µM
Cc1ccc2nc(Nc3nc(Nc4ccc(C#N)cc4)nc(Oc4cc(=O)n(C)c5ccccc45)n3)sc2c1 ; strain or isolate: IIIB ; method: MTT ; value: >3.88 µg/mL
CC1=N/C(=C/c2ccccc2O)C(=O)N1c1nc(C)cc(=O)[nH]1 ; method: RT activity ; value: 71.15 µg/mL
CC(C)CN(C[C@@H](O)[C@H](Cc1ccccc1)NC(=O)O[C@H]1CO[C@@H]2OCC[C@@H]21)S(=O)(=O)c1ccc2c(C=NCC3N=CC=N3)c(O)[nH]c2c1 ; method: MTT ; value: >0.4 µM
O=C(CN1C(=O)NC2(CCCCC2)C1=O)N[C@@H](Cc1ccccc1)C(=O)Nc1ccccc1 ; strain or isolate: NL4-3 ; method: fluorescence ; value: >20 µM
C=C1[C@H](CO)[C@H]1Cn1cnc2nc(N)nc(Cl)c21 ; value: >100 µM
Cc1cc(C)cc(Oc2nccn3c(=O)[nH]nc23)c1 ; method: luminescence ; value: 35 µM
CC1=N/C(=C/c2ccc(Cl)cc2)C(=O)N1c1nc(C)cc(=O)[nH]1 ; method: RT activity ; value: 60.77 µg/mL
Nc1nc2c(ncn2[C@@H]2C[C@H](CO)C3CC32)c(=O)[nH]1 ; value: >100 µg/mL
Cc1nc(N)nc2c1ncn2CC1(OCP(=O)(O)O)CC1 ; value: >30 µM
COc1ccc2oc3ccc(O)cc3c(=O)c2c1O ; value: 0.79 µg/mL
Nc1ncnc2c1ncn2[C@@H]1C[C@H](CO)[C@H]1CO ; value: 0.3 µg/mL
COc1cc(N)c2ncccc2c1Sc1ccc2ccccc2c1 ; method: luciferase / β-galactosidase ; value: 42 µM
CCCCCCCCCCCCCCC[C@@]1(O)C[N+](C)(C)C[C@@H](CC(=O)[O-])O1 ; strain or isolate: RF ; method: virus yield ; value: ~32 µg/mL
CC1=[N+](C)N(c2ccccc2)C(=O)C1Nc1nc(Nc2ccc(C#N)cc2)nc(Oc2cc(=O)n(C)c3ccccc23)n1 ; strain or isolate: IIIB ; method: MTT ; value: >125 µg/mL
CC1=N/C(=C/c2ccccc2)C(=O)N1c1nc(C)cc(=O)[nH]1 ; method: RT activity ; value: 65.86 µg/mL
COc1ccccc1NC(=O)CSc1nc(CCc2ccccc2)nc2sc3c(c12)CCCC3 ; value: >100 µM
CC1=N/C(=C/c2ccc(Cl)cc2)C(=O)N1c1nc(C)cc(Cl)n1 ; method: RT activity ; value: 72.84 µg/mL
CN1C(c2cccc(Cl)c2)c2ccccc2S1(=O)=O ; method: p24 / RT activity ; value: 0.38 µM
CC(C)OC(O)c1cc(NC(=S)C2=C(C(F)(F)F)OCCS2)ccc1Cl ; value: >6.5 µg/mL
CN1C(C)(c2ccccc2)c2ccccc2S1(=O)=O ; method: p24 / RT activity ; value: 4.52 µM
Nc1nc2c(ncn2CC2(OCP(=O)(O)O)CC2)c(=O)[nH]1 ; value: >30 µM
CCCCCCCCCCC[C@@]1(O)C[N+](C)(C)C[C@@H](CC(=O)[O-])O1 ; strain or isolate: RF ; method: virus yield ; value: ~320 µg/mL
Nc1nc2c(ncn2CCOCP(=O)(O)O)c(=O)[nH]1 ; method: p24 ; value: 0.08 µM
Cc1cc(Cl)nc(N2C(=O)/C(=C\c3ccc(N(C)C)cc3)N=C2c2ccccc2)n1 ; method: RT activity ; value: 52.47 µg/mL
CCCc1cc(=O)oc2c3c(c4c(c12)OC(C)(C)CC4)O[C@H](C)[C@@H](C)C3=O ; changes: RT-K101E ; method: cytopathic effect / XTT ; value: 26.4 µM
C=C1[C@H](CO)[C@H]1Cn1cnc2c(=O)[nH]c(N)nc21 ; value: >100 µM
CC(C)OC(O)c1cc(NC(=O)C2=C(C(F)(F)F)SCCS2)ccc1Cl ; value: 22.2 µg/mL
CN(C(=O)[C@H](Cc1ccccc1)NC(=O)Cc1cccc2ccccc12)c1ccccc1 ; strain or isolate: NL4-3 ; method: fluorescence ; value: 1.1 µM
CC1=C(C(=O)Nc2ccc(Cl)c(C(O)OC(C)C)c2)SCCO1 ; value: >82.5 µg/mL
FC(F)(Sc1ncccn1)c1nc2ccccc2o1 ; strain or isolate: IIIB ; value: 3.36 µM
Nc1ccn([C@H]2CC[C@@H](CO)O2)c(=O)n1 ; strain or isolate: NL4-3 ; changes: S241F ; method: β-galactosidase ; value: 0.42 µM
C=C1[C@H](CO)[C@H]1Cn1cnc2c(N)ncnc21 ; value: >100 µM
Nc1ncnc2c1ncn2[C@@H]1C[C@H](COP(=O)(O)OP(=O)(O)OP(=O)(O)O)C2CC21 ; value: >100 µg/mL
CC(C)OC(O)c1cc(NC(=O)C2=C(c3ccccc3)OCCS2)ccc1Cl ; value: 33.3 µg/mL
Oc1cc(-c2ccc3cc(O)c(O)c(O)c3c2)cc(O)c1O ; value: >1 µM
CC(C)OC(O)c1cc(NC(=O)C2=C(C(F)(F)F)OCCS2)ccc1Cl ; value: 11.3 µg/mL
Nc1ncnc2c1ncn2CC1(OCP(=O)(O)O)CC1 ; value: >30 µM
CC(C)CN(C[C@@H](O)[C@H](Cc1ccccc1)NC(=O)O[C@H]1CO[C@@H]2OCC[C@@H]21)S(=O)(=O)c1ccc2c(C=NCCO)c(O)[nH]c2c1 ; method: MTT ; value: >0.4 µM
O=c1[nH]sc2ccc(Br)cc12 ; method: luminescence ; value: 170 µM
O=S(=O)(O)c1c2ccccc2c(-c2c3nc(c(-c4c5ccccc5c(S(=O)(=O)O)c5ccccc45)c4ccc([nH]4)c(-c4c5ccccc5c(S(=O)(=O)O)c5ccccc45)c4nc(c(-c5c6ccccc6c(S(=O)(=O)O)c6ccccc56)c5ccc2[nH]5)C=C4)C=C3)c2ccccc12 ; strain or isolate: 89.6 ; value: <50 µg/mL
Cc1ccnc(SC(F)(F)c2nc3ccccc3o2)n1 ; strain or isolate: Calanolide-resistant (RT T139I) ; changes: RT-T139I ; value: 0.43 µM
Nn1ccnc1 ; strain or isolate: IIIB ; value: 0.2–4 µg/mL
Cc1ccc2c(c1)C(c1ccccc1)N(C)S2(=O)=O ; method: p24 / RT activity ; value: 31 µM
Cc1cn([C@@H]2OCC(CO)=C2F)c(=O)[nH]c1=O ; value: >100 µg/mL
CCNc1nc(N)nc2c1ncn2CC1(OCP(=O)(O)O)CC1 ; value: >30 µM
COc1cc(/C=C2/N=C(C)N(c3nc(C)cc(Cl)n3)C2=O)cc(OC)c1OC ; method: RT activity ; value: 67.56 µg/mL
C=C(C)[C@@H]1CC[C@]2(C(=O)NCCC(C)(C)C)CC[C@]3(C)[C@H](CC[C@@H]4[C@@]5(C)CC[C@H](OC(=O)CC(C)(C)C(=O)O)C(C)(C)[C@@H]5CC[C@]43C)[C@@H]12 ; strain or isolate: NL4-3 ; changes: V370delta ; method: absorbance ; value: 0.332 µM
CC1=N/C(=C/c2ccc3c(c2)CC=N3)C(=O)N1c1nc(C)cc(=O)[nH]1 ; method: RT activity ; value: 67.94 µg/mL
Cn1c(=O)cc(Oc2nc(Nc3ccc(C#N)cc3)nc(Sc3nnc(-c4ccncc4)o3)n2)c2ccccc21 ; strain or isolate: IIIB ; method: MTT ; value: >68.75 µg/mL
Nc1nc(N)c2ncn([C@@H]3C[C@H](CO)C4CC43)c2n1 ; value: >100 µg/mL
CN1C(c2cccc(O)c2)c2ccccc2S1(=O)=O ; method: p24 / RT activity ; value: 38.7 µM
Nc1ccn([C@H]2CC[C@@H](CO)O2)c(=O)n1 ; method: cytopathic effect ; value: <16 µM
c1ccc(CNCc2ccc(CN3CCCNCCNCCCNCC3)cc2)nc1 ; strain or isolate: IIIB ; value: 0.001–0.01 µg/mL
C=C1[C@H](CO)[C@H]1Cn1cnc2ncnc(Cl)c21 ; value: >100 µM
O=[N+]([O-])c1ccc2c(C=Nc3ccc(-c4nc5ccccc5s4)c(O)c3)c(O)ccc2c1 ; value: >100 µM
Cn1c(=O)cc(Oc2nc(Nc3ccc(C#N)cc3)nc(Nc3nc4ccc([N+](=O)[O-])cc4s3)n2)c2ccccc21 ; strain or isolate: IIIB ; method: MTT ; value: >69.28 µg/mL
CSc1nc(NCc2ccccc2Cl)c2cnn(CC(Cl)c3ccc(Br)cc3)c2n1 ; value: 21.09 µM
Cc1cc(Cl)nc(N2C(=O)/C(=C\c3ccc(Cl)cc3Cl)N=C2c2ccccc2)n1 ; method: RT activity ; value: 54.16 µg/mL

The last 8 rows once more:

structure,strain or isolate,changes,method,value
CN1C(c2cccc(O)c2)c2ccccc2S1(=O)=O,,,p24 / RT activity,38.7 µM
Nc1ccn([C@H]2CC[C@@H](CO)O2)c(=O)n1,,,cytopathic effect,<16 µM
c1ccc(CNCc2ccc(CN3CCCNCCNCCCNCC3)cc2)nc1,IIIB,,,0.001–0.01 µg/mL
C=C1[C@H](CO)[C@H]1Cn1cnc2ncnc(Cl)c21,,,,>100 µM
O=[N+]([O-])c1ccc2c(C=Nc3ccc(-c4nc5ccccc5s4)c(O)c3)c(O)ccc2c1,,,,>100 µM
Cn1c(=O)cc(Oc2nc(Nc3ccc(C#N)cc3)nc(Nc3nc4ccc([N+](=O)[O-])cc4s3)n2)c2ccccc21,IIIB,,MTT,>69.28 µg/mL
CSc1nc(NCc2ccccc2Cl)c2cnn(CC(Cl)c3ccc(Br)cc3)c2n1,,,,21.09 µM
Cc1cc(Cl)nc(N2C(=O)/C(=C\c3ccc(Cl)cc3Cl)N=C2c2ccccc2)n1,,,RT activity,54.16 µg/mL

Blank or dashed fields: not listed here. Lines come from different laboratories, so protocols vary. ECn: concentration that inhibits the pathogen or its effect by n%.